Measured values: ChEMBL document CHEMBL6177980 (J Med Chem, 2025)

Experiments:
[1] = system: Severe fever with thrombocytopenia syndrome virus; assay: In vivo antiviral activity against SFTSV infected in mouse harboring IFNAR1tm1Agt assessed as improvement in platelet count treated orally once daily for 7 days; details: dose 2.5-100 mg/kg, route po, time 7.0 day
[2] = system: Severe fever with thrombocytopenia syndrome virus; assay: Antiviral activity against SFTSV infected in mouse harboring IFNAR1tm1Agt assessed as reduction in viral load in spleen treated orally once daily for 7 days; details: route po, time 7.0 day
[3] = system: Severe fever with thrombocytopenia syndrome virus; assay: Antiviral activity against SFTSV infected in mouse harboring IFNAR1tm1Agt assessed as reduction in viraemia in spleen treated orally once daily for 7 days; details: route po, time 7.0 day

Measured: Activity

CC(C)C(=O)OC[C@@]1(F)O[C@@H](n2ccc(=O)n(COC(=O)c3cccnc3)c2=O)[C@H](OC(=O)C(C)C)[C@@H]1OC(=O)C(C)C
active: [1] Dose-dependent-effect | [2] Dose-dependent-effect | [3] Dose-dependent-effect
